The source of these data is US20250312345A1, “NON-COVALENT INHIBITORS OF THE MAIN PROTEASE OF SARS-COV-2 AND METHODS OF USE” (YALE UNIVERSITY, priority 2022, published 2025).

Each structure is given as a SMILES string.

The term EC50 denotes the concentration needed to bring the measured effect to its halfway point.

The assay has as its system SARS-CoV-2 replicon. Kind of assay: microbe, parasite or virus in culture. In kind it is cell-based. To be noted: Severe acute respiratory syndrome coronavirus 2, BHK; Table 3.

Molecule `Cn1cc(-c2cc(-c3cc(Cl)cc(OCCC(F)(F)F)c3)c(=O)n(-c3cccnc3)c2)c(=O)[nH]c1=O` [compound 60] gave a half-maximal effective concentration (EC50) of 820 ± 280 nM.
In turn, `Cn1cc(-c2cc(-c3cc(Cl)cc(OCc4scnc4C(F)(F)F)c3)c(=O)n(-c3cccnc3)c2)c(=O)[nH]c1=O` [compound 64] returned an EC50 of 1080 nM.
